Compound potency records, mixed from different reports. Data source: NIAID ChemDB in PubChem.

Shared fields: target-level tests; organism: HIV-1; target: Integrase

a–b is a range or a potency band. ICn is the concentration giving n% inhibition. Fold resistance: result on the changed form divided by that on wild type. Lines come from different laboratories, so protocols vary.

CC(=O)N(C)C12CCC(F)(CC1)Cn1c2nc(C(=O)NCc2ccc(F)c(C)c2)c(O)c1=O ; method: radiometric ; measure: Ki ; result: 0.0000033 µM
CC(=O)N1CCC2(CC1)OCCCn1c2nc(C(=O)NCc2ccc(F)cc2)c(O)c1=O ; method: binding / radiometric ; measure: Ki ; result: 0.001–0.003 µM
Cc1cc2c(cc1Cl)SC(C(=O)c1ccccc1)=NS2(=O)=O ; method: 3′ processing ; changes: INTG-C65S ; measure: fold resistance ; result: 7.5
CC(=O)N(CC(C)C)C1CN(C)CCn2c1nc(C(=O)NCc1ccc(F)cc1)c(O)c2=O ; method: ELISA ; measure: IC50 ; result: <10 µM
COc1ccc(C(=O)C2=NS(=O)(=O)c3cc(C)c(Cl)cc3S2)cc1 ; method: strand transfer ; changes: INTG-C65S ; measure: fold resistance ; result: 0.9
O=C(/C=C/c1ccc(O)c(O)c1)OCCc1ccc(NC(=S)SCCO)cc1 ; method: 3′ processing ; changes: C65S ; measure: fold resistance ; result: 2.33
COCC12CCC(N(C)C(=O)C(=O)N(C)C)(CC1)c1nc(C(=O)NCc3ccc(F)c(C)c3)c(O)c(=O)n1C2 ; method: radiometric ; measure: Ki ; result: 0.0000022 µM
CNC(=O)c1cn2c(c(O)c1=O)C(=O)N(Cc1ccc(F)cc1)CC2 ; method: ELISA ; measure: IC50 ; result: 0.1–1 µM
Cc1cccc(CNC(=O)c2nc3n(c(=O)c2O)CC2(F)CCC3(NC(=O)C(=O)C(C)C)CC2)c1 ; method: radiometric ; measure: Ki ; result: 0.000003 µM
CC1c2nc(C(=O)NCc3ccc(F)cc3)c(O)c(=O)n2CCN1Cc1ccnn1C ; method: ELISA ; measure: IC50 ; result: <10 µM
Cc1c(F)cc(Br)c(CNC(=O)c2nc3n(c(=O)c2O)CC2(CO)CCC3(NC(=O)C(=O)N(C)C)CC2)c1Br ; method: radiometric ; measure: Ki ; result: 0.0000061 µM
O=C(NCc1ccc(F)cc1)c1nc2n(c(=O)c1O)CCCOC21CCN(C(=O)OCc2ccccc2)CC1 ; method: binding / radiometric ; measure: Ki ; result: 0.001–0.003 µM
CC(=O)OCC12CCC(NC(=O)C(=O)N(C)C)(CC1)c1nc(C(=O)NCc3ccc(F)cc3)c(O)c(=O)n1C2 ; method: radiometric ; measure: Ki ; result: 0.0000024 µM
O=C(/C=C/c1ccc(O)c(O)c1)Oc1ccc2c(N=C=S)cccc2c1 ; method: 3′ processing ; changes: C65S ; measure: fold resistance ; result: 2.33
Cc1cc(CNC(=O)c2nc3n(c(=O)c2O)CC2(F)CCC3(N(C)C(=O)C(=O)N(C)C(C)C)CC2)ccc1F ; method: radiometric ; measure: Ki ; result: 0.000002 µM
Cc1cc(Cl)cc2c1S(=O)(=O)N=C(C(=O)c1ccc3ccccc3c1)S2 ; method: 3′ processing ; changes: INTG-C65S ; measure: fold resistance ; result: 0.91
CN(C)CCCC12CCC(NC(=O)C(=O)N(C)C)(CC1)c1nc(C(=O)NCc3cccc(Cl)c3F)c(O)c(=O)n1C2 ; method: radiometric ; measure: Ki ; result: 0.000008 µM
Cc1ncnn1-c1cc(F)ccc1CNC(=O)c1nc2n(c(=O)c1O)CCCOC21CCN(S(=O)(=O)N(C)C)CC1 ; method: binding / radiometric ; measure: Ki ; result: 0.003–0.05 µM
Cc1ccc(S(=O)(=O)N2CCn3c(nc(C(=O)NCc4ccc(F)cc4)c(O)c3=O)C2)cc1 ; method: ELISA ; measure: IC50 ; result: <10 µM
Cc1ncnn1-c1cc(F)ccc1CNC(=O)c1nc2n(c(=O)c1O)CCCOC21CCN(C(=O)C(=O)N(C)C)CC1 ; method: binding / radiometric ; measure: Ki ; result: 0.003–0.05 µM
O=C(/C=C/c1ccc(O)c(O)c1)Oc1cccc2c(N=C=S)cccc12 ; method: 3′ processing ; changes: C56S ; measure: fold resistance ; result: 10
O=c1c(-c2ccc(Cl)cc2)cn2ccn(Cc3cccc(Cl)c3)c(=O)c2c1O ; method: ELISA ; measure: IC50 ; result: 0.01–0.1 µM
Cc1cc(CNC(=O)c2nc3n(c(=O)c2O)CC2(N4CCC4)CCC3(NC(=O)C(=O)N(C)C)CC2)ccc1F ; method: radiometric ; measure: Ki ; result: 0.000006 µM
Cc1cc2c(cc1Cl)SC(C(=O)c1ccc(Br)cc1)=NS2(=O)=O ; method: 3′ processing ; changes: INTG-C65S ; measure: fold resistance ; result: 2.17
CN(C)C(=O)c1cn2c(c(O)c1=O)C(=O)N(Cc1ccc(F)c(Cl)c1)CC2 ; method: ELISA ; measure: IC50 ; result: 0.01–0.1 µM
O=C(C1=NS(=O)(=O)c2ccc(Cl)cc2S1)c1ccc(Cl)cc1 ; method: strand transfer ; changes: INTG-C65S ; measure: fold resistance ; result: 1.1
CC(=O)N1CCC2(CC1)COCCn1c2nc(C(=O)NCc2ccc(F)cc2-n2ncnc2C)c(O)c1=O ; method: binding / radiometric ; measure: Ki ; result: 0.003–0.05 µM
O=C(/C=C/c1ccc(O)c(O)c1)OCCc1ccc(N=C=S)cc1 ; method: 3′ processing ; changes: C56S ; measure: fold resistance ; result: 4.5
CN(C)C(=O)C(=O)N1CCn2c(nc(C(=O)NCc3ccc(F)cc3)c(O)c2=O)C1 ; method: ELISA ; measure: IC50 ; result: <10 µM
CC(C)OCc1cc(=O)c(O)c2n1CCN(Cc1ccc(Cl)c(Cl)c1)C2=O ; method: ELISA ; measure: IC50 ; result: 0.01–0.1 µM
O=C(C1=NS(=O)(=O)c2ccc(Cl)cc2S1)c1ccc2ccccc2c1 ; method: strand transfer ; changes: INTG-C65S ; measure: fold resistance ; result: 4.37